Anti-infective test results gathered from many reports (values: NIAID ChemDB through PubChem).

All rows: whole-cell or culture tests; agent: HIV-1

ECn is the concentration giving n% inhibition of infection, replication or growth. An empty or dashed field is not shown. Neighbouring rows are from separate reports.

structure	strain or isolate	mutations	endpoint	cell line	method	result
C=C(C)[C@@H]1CC[C@]2(C(=O)NCCCCCCCC(=O)N[C@@H](CC(C)C)[C@@H](O)CC(=O)O)CC[C@]3(C)[C@H](CC[C@@H]4[C@@]5(C)CC[C@H](O)C(C)(C)[C@@H]5CC[C@]43C)[C@@H]12	LAI		EC50	CEM	cytopathic effect / MTT	0.05 µM
CN(C)CC1NCCn2c1nc(C(=O)NCc1ccc(F)cc1)c(O)c2=O			EC95	MT-4	p24	<50 µM
Nc1ncnc2c1ncn2[C@H]1C[C@@H](CO)C=C1F		RT-M184V	EC50	PBMC	RT activity	75.3 µM
C#C[C@@]12OC[C@]1(CO)O[C@@H](n1ccc(=O)[nH]c1=O)[C@@H]2O	IIIB		EC50	MT-4	antigen	>100 µM
O=C1Nc2ccc(Cl)c3c2[C@](C(F)(F)F)(C=C(c2cccnc2)O3)N1		RT-K103N	EC50	MT-4	p24	<0.076 µM
CC(C)[C@H](NC(=O)[C@H](CO)NC(=O)[C@H](CS)NC(=O)CCC(=O)NCCCOCCOCCCN)C(=O)N[C@H](C(=O)N[C@@H](CS)C(=O)NCC(=O)O)[C@@H](C)O	IIIB		EC50	PBMC(PHA STIM.) + PBMC	p24	<0.132 µM
COc1cc(Cc2cnc(/N=C3\C(=O)N(CN(C)C)c4ccc(F)cc43)nc2N)cc(OC)c1OC	IIIB		EC50	MT-4	cytopathic effect / MTT	>62.7 µg/mL
CCOC(=O)c1cn(CC(O)CNc2ccccc2N)cc1-c1ccccc1	IIIB		EC50	MT-4	cytopathic effect / MTT	>0.8 µM
O=C1Nc2ccc(Cl)c3c2[C@](C(F)(F)F)(C=C(c2ccccc2)O3)N1		RT-K103N	EC90	MT-4	p24	0.046 µM
N#C[C@@H]1[C@H](O)[C@@H](n2cnc3c(=O)[nH]c(N)nc32)O[C@H]1CO			EC50	PBMC		>100 µM
CC(C)C1=C2[C@H]3CC[C@@H]4[C@@]5(C)CC[C@H](OC(=O)[C@H]6C[C@@H](C(=O)O)C6(C)C)C(C)(C)[C@@H]5CC[C@@]4(C)[C@]3(C)CC[C@@]2(CC(=O)NC(C)(C)CNC(=O)c2ccc3c(c2)OCO3)CC1=O	92HT599		EC50	MT-2	p24 / ELISA	<1 µM
Cc1cn([C@H]2O[C@@H](CO)[C@H](C#N)[C@@H]2O)c(=O)[nH]c1=O			EC50	PBMC		>100 µM
CC(C)C1=C2[C@H]3CC[C@@H]4[C@@]5(C)CC[C@H](OC(=O)[C@H]6C[C@@H](C(=O)O)C6(C)C)C(C)(C)[C@@H]5CC[C@@]4(C)[C@]3(C)CC[C@@]2(CCNC[C@@H]2CCCN2)CC1=O	92HT599		EC50	MT-2	p24 / ELISA	<1 µM
C=CCNc1c(N=Nc2ccc(Cl)cc2)c(N)nc(=O)n1C	IIIB		EC50	MT-4	MTT	>14.23 µM
CC(=O)OCC1OC(SC2C(SC(C)=O)OC(COC(C)=O)C(OC(C)=O)C2OC(C)=O)C(OC(C)=O)C(OC(C)=O)C1OC(C)=O			EC50	CEM	XTT	48 µg/mL
CCN(CC)CN1C(=O)/C(=N\c2ncc(Cc3cc(OC)c(OC)c(OC)c3)c(N)n2)c2cc(F)ccc21			EC50	CEM	cytopathic effect / XTT	>116 µg/mL
Cc1cn([C@@H]2C=C(C#N)[C@H](CO)O2)c(=O)[nH]c1=O			EC50	PBMC		38 µM
CC1(C)c2nc(C(=O)NCc3ccc(F)cc3)c(O)c(=O)n2CCN1Cc1cocn1			EC50	MT-4	p24	<1 µM
Cn1c(Cl)c(N=Nc2ccc(Cl)cc2)c(N)nc1=O	IIIB		EC50	MT-4	MTT	>2.15 µM
CO[C@H]1OC(CO[C@@H]2OC(COC(C)=O)[C@@H](OC(C)=O)[C@@H](OC(C)=O)C2S[C@@H]2OC(COC(C)=O)[C@@H](OC(C)=O)[C@@H](OC(C)=O)C2OC(C)=O)[C@@H](OC(C)=O)[C@@H](OC(C)=O)C1OC(C)=O			EC50	CEM MT-2 + CEM	XTT	>100 µg/mL
COCCOc1cc(Cl)ccc1C(=O)NC(C)(C)CNCC[C@@]12CC[C@]3(C)[C@H](CC[C@@H]4[C@@]5(C)CC[C@H](OC(=O)[C@H]6C[C@@H](C(=O)O)C6(C)C)C(C)(C)[C@@H]5CC[C@]43C)C1=C(C(C)C)C(=O)C2	92HT599		EC50	MT-2	p24 / ELISA	<1 µM
COc1cc(Cc2cnc(/N=C3\C(=O)N(CN4CCN(c5cccc(C(F)(F)F)c5)CC4)c4ccc(F)cc43)nc2N)cc(OC)c1OC			EC50	CEM	cytopathic effect / XTT	>127 µg/mL
CCOP(=O)(Cc1cccc(Nc2cc(-c3cccc(N)c3)ncn2)c1)OCC			EC50	MT-4	virus yield	0.332 µM
Cc1cncc(C(=O)N(CCN(C)C)CC[C@@]23CC[C@]4(C)[C@H](CC[C@@H]5[C@@]6(C)CC[C@H](OC(=O)[C@H]7C[C@@H](C(=O)O)C7(C)C)C(C)(C)[C@@H]6CC[C@]54C)C2=C(C(C)C)C(=O)C3)n1	92HT599		EC50	MT-2	p24 / ELISA	<1 µM
Cc1cc(=O)[nH]c(N2C(=O)/C(=C\c3ccc(Cl)cc3Cl)N=C2c2ccccc2)n1			EC50		RT activity	48.69 µg/mL
CCN(CC)c1c(N=Nc2ccc(-c3ccc(OC)c(OC)c3)cc2)c(N)nc(=O)n1C	IIIB		EC50	MT-4	MTT	>25.23 µM
COc1ccc(C(=O)NC(C)(C)C(=O)NC[C@H](O)[C@@]23CC[C@]4(C)[C@H](CC[C@@H]5[C@@]6(C)CC[C@H](OC(=O)[C@H]7C[C@@H](C(=O)O)C7(C)C)C(C)(C)[C@@H]6CC[C@]54C)C2=C(C(C)C)C(=O)C3)cc1	92HT599		EC50	MT-2	p24 / ELISA	<1 µM
Cc1cc(Cl)nc(N2C(=O)/C(=C\c3ccc(N(C)C)cc3)N=C2c2ccccc2)n1			EC50		RT activity	52.47 µg/mL
CC(C)(C)NC(=O)c1ccccc1NCC(O)Cn1c(C(=O)NC(C)(C)C)cc2ccccc21	IIIB		EC50	MT-4	cytopathic effect / MTT	>27 µM
Nc1ccn([C@@H]2S[C@H](CO)C=C2F)c(=O)n1	xxBRU		EC50	PBMC	RT activity	<5 µM
COc1cc(Cc2cnc(/N=C3\C(=O)N(CN4CCCC4)c4ccc(F)cc43)nc2N)cc(OC)c1OC	IIIB		EC50	MT-4	cytopathic effect / MTT	>129.6 µg/mL
C#C[C@]1(O)[C@H]2OC[C@]1(CO)O[C@H]2n1ccc(=O)[nH]c1=O	IIIB		EC50	MT-4	antigen	>100 µM
CCOC(=O)c1cn(CC(O)CSc2ccccc2C(=O)NC(C)(C)C)cc1-c1ccccc1	IIIB		EC50	MT-4	cytopathic effect / MTT	>94 µM
CC(=O)N1CCC(C(=O)N(CCCN2CCC(Cc3ccc(C(N)=O)cc3)CC2)c2ccc(C)c(Cl)c2)CC1	HHA Clinical isolates		EC50	PBMC	p24	0.0006 µM
COc1ccccc1-c1cc(Nc2cccc(P(=O)(O)O)c2)ncn1			EC50	MT-4	virus yield	0.429 µM
CN(C)C(=O)C(=O)N(C)C1CN(C2CCCC2)CCn2c1nc(C(=O)NCc1ccc(F)cc1)c(O)c2=O			EC50	MT-4	p24	<1 µM
Nc1nc2c(ncn2[C@H]2C=C[C@@H](CO)C2)c(=O)[nH]1			EC80	MT-4		50 µM
CC1(C)NC(=O)Cn2c1nc(C(=O)NCc1ccc(F)cc1)c(O)c2=O			EC50	MT-4	p24	<50 µM
COc1c(Cl)ccc2c1[C@@](C#Cc1cccnc1)(C(F)(F)F)NC(=O)N2		RT-K103N	EC50	MT-4	p24	<0.147 µM
CC(C)[C@H](NC(=O)[C@H](CO)NC(=O)[C@@H](N)CSSCC(=O)O)C(=O)N[C@H](C(=O)N[C@@H](CSSCC(=O)O)C(=O)NCC(=O)O)[C@@H](C)O	BaL		EC50	PBMC(PHA STIM.) + PBMC	p24	<1.32 µM
CC(=O)OCC1OC=C(SC2OC(COC(C)=O)C(OC(C)=O)C(OC(C)=O)C2OC(C)=O)C(OC(C)=O)C1OC(C)=O			EC50	CEM MT-2 + CEM	XTT	>100 µg/mL
Cn1c(-c2ccc(F)c(F)c2)cc(N)nc1=O	IIIB		EC50	MT-4	MTT	>16.01 µM
CC1=N/C(=C/c2ccco2)C(=O)N1c1nc(C)cc(Cl)n1			EC50		RT activity	86.24 µg/mL
CC(C)C1=C2[C@H]3CC[C@@H]4[C@@]5(C)CC[C@H](OC(=O)[C@H]6C[C@@H](C(=O)O)C6(C)C)C(C)(C)[C@@H]5CC[C@@]4(C)[C@]3(C)CC[C@@]2([C@@H](O)CNCC(C)(C)NC(=O)CN2CCCCC2)CC1=O	92HT599		EC50	MT-2	p24 / ELISA	<1 µM
C#C[C@]1(OC(C)=O)[C@@H](OC(C)=O)[C@H](n2ccc(=O)[nH]c2=O)OC1(COC(C)=O)COC(C)=O	IIIB		EC50	MT-4	antigen	>100 µM
Cc1ccc(NC(=O)CN2CCN(Cc3nc(-c4ccc(F)cc4)no3)CC2)cc1	92UG031		EC50	PBMC	RT activity	11.7 µM
N#CC1=C[C@@H](n2ccc(=O)[nH]c2=O)O[C@H]1CO			EC50	PBMC		21.7 µM
O=C1Nc2ccc(Cl)c(O)c2[C@@](C#Cc2ccccc2)(C(F)(F)F)N1		RT-K103N	EC90	MT-4	p24	0.03 µM
CC(C)(C)NC(=O)c1ccccc1NCC(O)Cn1c(C(=O)NC(C)(C)C)cc2cc(Cl)ccc21	IIIB		EC50	MT-4	cytopathic effect / MTT	>66 µM
C=CCNc1c(N=Nc2ccc(-c3ccc(F)cc3)cc2)c(N)nc(=O)n1C	IIIB		EC50	MT-4	MTT	>10.42 µM
COc1ccnc2[nH]cc(C(=O)C(=O)N3CCN(C(=O)c4ccccc4)C[C@H]3C)c12	LAI(GP120-M434I) Recombinant	GP120-M434I	EC50	MT-2	RT activity	0.017 µM
CCOC(=O)c1cc2ccccc2n1CC(O)CNc1ccccc1C(=O)OC	IIIB		EC50	MT-4	cytopathic effect / MTT	>39 µM
C#C[C@@]1(OC(C)=O)[C@@H]([C@@H](COC(C)=O)OC(C)=O)O[C@@H](n2ccc(=O)[nH]c2=O)[C@@H]1OC(C)=O	IIIB		EC50	MT-4	antigen	>100 µM
CCCP(=O)(Cc1cccc(Nc2cc(-c3ccccc3OCc3ccccc3)ncn2)c1)OCC			EC50	MT-4	virus yield	0.143 µM
CCOC(=O)c1cn(CC(O)CNc2cccc(N)c2)cc1-c1ccccc1	IIIB		EC50	MT-4	cytopathic effect / MTT	>4.3 µM
CC1=N/C(=C/c2ccccc2)C(=O)N1c1nc(C)cc(=O)[nH]1			EC50		RT activity	65.86 µg/mL
CCCP(=O)(O)Cc1cccc(Nc2cc(-c3ccccc3OCc3ccccc3)ncn2)c1			EC50	MT-4	virus yield	0.142 µM
CN(C)c1c(N=Nc2ccc(Cl)cc2)c(N)nc(=O)n1C	IIIB		EC50	MT-4	MTT	>28.24 µM
C#C[C@]1(O)[C@@H](O)[C@H](n2ccc(N)nc2=O)OC1(CO)CO	IIIB		EC50	MT-4	antigen	>100 µM
CN1CCN(C(=O)CN2CCn3c(nc(C(=O)NCc4ccc(F)cc4)c(O)c3=O)C2(C)C)CC1			EC50	MT-4	p24	<1 µM
COC(=O)C(C)NP(=O)(OC[C@@H]1C=C[C@H](n2cc(C)c(=O)[nH]c2=O)O1)OCC(Cl)(Cl)Cl	IIIB		EC50	C8166	p24	0.2 µM
N#C[C@@H]1[C@H](O)[C@@H](n2cnc3c(=O)[nH]cnc32)O[C@H]1CO			EC50	PBMC		>100 µM
C#C[C@@]1(O)[C@@H]([C@@H](C)O)O[C@@H](n2ccc(=O)[nH]c2=O)[C@@H]1O	IIIB		EC50	MT-4	antigen	>100 µM
Cn1c(N(Cc2ccccc2)Cc2ccccc2)c(N=Nc2ccc(Cl)cc2)c(N)nc1=O	IIIB		EC50	MT-4	MTT	>78.59 µM
CC(=O)N(CC(C)C)C1CN(C)CCn2c1nc(C(=O)NCc1ccc(F)cc1)c(O)c2=O			EC95	MT-4	p24	<1 µM
N#C[C@@H]1[C@H](O)[C@@H](n2cnc3c(N)ncnc32)O[C@H]1CO			EC50	PBMC		74.8 µM
CC1=CCC([C@@H](C)C2CC[C@@]3(C)C4=C(C=C5C=CC(=O)OC(C)(C)[C@@H]5[C@H](O)C4)CC[C@]23C)OC1=O	IIIB		EC50	H9	p24	>14.3 µg/mL
CC1(C)OCC(C2OC3OC(C)(C)OC3C2OS(=O)(=O)C(F)(F)F)O1			EC50	CEM MT-2 + CEM	XTT	>100 µg/mL
COc1cc(Cc2cnc(/N=C3\C(=O)N(CN4CCN(c5cccc(Cl)c5)CC4)c4ccc(F)cc43)nc2N)cc(OC)c1OC			EC50	CEM	cytopathic effect / XTT	>104 µg/mL
CCOC(=O)c1ccccc1SCC(O)Cn1cc(C(=O)OCC)c(-c2ccccc2)c1	IIIB		EC50	MT-4	cytopathic effect / MTT	>50 µM
COc1cc(Cc2cnc(/N=C3\C(=O)N(CN4CCN(C)CC4)c4ccc(F)cc43)nc2N)cc(OC)c1OC			EC50	CEM	cytopathic effect / XTT	>115 µg/mL
CCN(CC)c1c(N=Nc2ccc(Cl)cc2)c(N)nc(=O)n1C	IIIB		EC50	MT-4	MTT	>100 µM